The exact form of at least one protein or probe is not confirmed. For some of these results: Where a protein sequence is shown, tags need not be part of it.
Key:
Assay in all cases: EMSA
[1] = target: Bpur-E63A/S64A (Borrelia burgdorferi B31) (UniProt O51076); details: EMSA: 50 mM Tris pH 7.5, 25 mM KCl, 1 mM MgCl2, 100 nM DTT, 10% glycerol, 0.01% Tween 20, 0.1% PMSF, temperature not stated, RNA/ssDNA probes preheated at 56 C, recombinant protein, residues 1-122
[2] = target: Bpur-Q75A (Borrelia burgdorferi B31) (UniProt O51076); details: EMSA: 50 mM Tris pH 7.5, 25 mM KCl, 1 mM MgCl2, 100 nM DTT, 10% glycerol, 0.01% Tween 20, 0.1% PMSF; temperature not stated; RNA/ssDNA probes preheated at 56 C; recombinant protein; residues 1-122; label: 5' biotin; single-stranded DNA
[3] = target: T1, Bpur-ΔN del1-28 (Borrelia burgdorferi B31) (UniProt O51076); details: EMSA: 50 mM Tris pH 7.5, 25 mM KCl, 1 mM MgCl2, 100 nM DTT, 10% glycerol, 0.01% Tween 20, 0.1% PMSF; temperature not stated; RNA/ssDNA probes preheated at 56 C; recombinant protein; residues 29-122; label: 5' biotin
T1 sequence (looked up): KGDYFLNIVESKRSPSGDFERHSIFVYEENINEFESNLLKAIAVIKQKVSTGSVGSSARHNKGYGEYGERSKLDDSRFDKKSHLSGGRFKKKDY

Sequence: AATGGAGAGATTTTGGGGAGTTGTTTAAAATTACATTTGCGTTTTGTTAAAATG (double strand) [Bio-dsDNA]
- Kd ([1]; label: 5' biotin (one strand)): 137 nM

Sequence: AATGGAGAGATTTTGGGGAGTTGTTTAAAATTACATTTGCGTTTTGTTAAAATG [Bio-sense-ssDNA]
- Kd [2]: 279 nM

Sequence: AAUGGAGAGAUUUUGGGGAGUUGUUUAAAAUUACAUUUGCGUUUUGUUAAAAUG [Bio-sense-RNA]
- Kd ([1]; label: 5' biotin): 15 nM
- Kd [3]: 12 nM

From article PMC3764826, “Bpur, the Lyme Disease Spirochete's PUR Domain Protein”
